The values below come from patent publication US20030194411A1.

Holding throughout (experiment): ELISA, peptide coat 5000 ng/ml
On the technique in general: In an ELISA, binding on a coated surface is turned into a signal by an enzyme label.

For test [1], the target named is peptide 285 ….
Test [2] addresses peptide 284 ….
For test [3], the target named is peptide 282 (GPGRAF)3C, ….

“And” between values parts separate entries of the source, which are not always exact repeats. Equal entries are not always repeated.

In the case of Negative control serum of Table 10, the OD was 0.033 in test [1]; 0.025 and 0.021 in test [2]; 0.02 and 0.035 in test [3].
